Laboratory results: PubChem BioAssay AID504761 (Drosophila RNAi Screening Center, 2011)

Screen: 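Genome-wide fly cell screen for genes dengue virus requires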 (primary screen)
System: D.Mel-2 cells from Drosophila
Reagents: long dsRNA against Drosophila genes
Challenge: infection with dengue virus type 2; dose and infection time not stated
Detection: 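Cells stained for dengue envelope protein and imaged; percent of infected cells per well on duplicate plates, ranked by infection, with stained nuclei counted for cell number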
Scale: infection score: higher = more virus-infected cells; cell count: higher = more cells in the well
Rule for the call: 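Very low infection ranking in both replicate wells (chance probability at most 0.065), then a retest showing infection dropped 1.5-fold or more at p below 0.05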
Calls: active = confirmed: knock-down lowers infection; inactive = not picked or not confirmed
The screen tested about 22,000 reagents; below is a random part of those that have a named target and a result. In the full data, 116 (0.52%) got an active call. 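Calls depend on retest data that are not deposited; infection was ranked per plate without normalising between plates; the unit of the infection score is not given.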 The raw values are shown without normalisation. A plus sign joins genes that one reagent is predicted to hit. Not stated in the record: the amount of reagent, the time to read-out.

gene | amplicon | infection score, replicate 1 | infection score, replicate 2 | cell count, replicate 1 | cell count, replicate 2 | outcome
Tsen34 (GeneID 2768977) | DRSC22932 | 2.03 | 3.89 | 6793 | 6942 | inactive
CG30291 (GeneID 246534) | DRSC03842 | 0.45 | 0.98 | 6272 | 5535 | inactive
Pstk + Tim9b | DRSC19504 | 5.03 | 8.66 | 6617 | 6674 | inactive
Pstk + Tim9b | DRSC20292 | 2.29 | 1.82 | 6166 | 5813 | inactive
Pstk + Tim9b | DRSC28671 | 1.74 | – | 518 | 411 | inactive
TwdlW (GeneID 42075) | DRSC15540 | 7.85 | 11.8 | 6372 | 6152 | inactive
TwdlW (GeneID 42075) | DRSC25402 | 11.3 | 7.85 | 7073 | 6496 | inactive
tld (GeneID 42945) | DRSC17084 | 2.84 | 0.45 | 6591 | 441 | inactive
CG11356 (GeneID 32178) | DRSC19401 | 4.44 | 5.7 | 6801 | 7056 | inactive
Ir7e (GeneID 7354417) | DRSC18011 | 1.79 | 6.35 | 6763 | 6221 | inactive
HSPC300 (GeneID 246497) | DRSC22880 | 4.44 | 6.24 | 5453 | 5853 | inactive
CG32061 (GeneID 39196) | DRSC22605 | 9.77 | 1.67 | 6396 | 6474 | inactive
hzg (GeneID 39748) | DRSC23382 | 7.84 | 1.53 | 6352 | 6282 | inactive
CG8520 (GeneID 36357) | DRSC07206 | 7.64 | 13.1 | 6207 | 6112 | inactive
ADD1 (GeneID 36278) | DRSC07135 | 19.7 | 18.4 | 1576 | 5909 | inactive
ADD1 (GeneID 36278) | DRSC26133 | 12 | 8.36 | 5008 | 5753 | inactive
mRpL50 (GeneID 38796) | DRSC11015 | 3.64 | 4.81 | 5985 | 6336 | inactive
mRpL50 (GeneID 38796) | DRSC29216 | 0.31 | 13.2 | 326 | 2280 | inactive
CG31638 (GeneID 33910) | DRSC02269 | 1.52 | 2.75 | 6127 | 6736 | inactive
CG31638 (GeneID 33910) | DRSC03259 | 0.84 | 2.66 | 6301 | 6846 | inactive
CG31638 (GeneID 33910) | DRSC25082 | 1.1 | 3.48 | 6113 | 6092 | inactive
Acp1 (GeneID 34052) | DRSC01854 | 4.31 | 3.84 | 5991 | 6256 | inactive
cdi (GeneID 42289) | DRSC16922 | 1.27 | 3.09 | 6636 | 6378 | inactive
cdi (GeneID 42289) | DRSC28376 | 17.9 | 14.4 | 5058 | 5706 | inactive
zfh1 (GeneID 43650) | DRSC17098 | 9.53 | 1.53 | 5206 | 5637 | inactive
zfh1 (GeneID 43650) | DRSC26931 | 6.33 | 9.77 | 4583 | 4423 | inactive
Fum1 (GeneID 31605) | DRSC18344 | 12 | 6.76 | 5898 | 3372 | active
Fum1 (GeneID 31605) | DRSC27406 | 7.23 | 14.8 | 6513 | 5700 | inactive
CG13526 (GeneID 37613) | DRSC04168 | 9.93 | 6.45 | 5388 | 6144 | inactive
SmydA-6 (GeneID 36917) | DRSC07341 | 2.84 | 14.7 | 6306 | 5530 | inactive
CG31804 (GeneID 318951) | DRSC22728 | 3.67 | 5.15 | 6722 | 6911 | inactive
CG30274 (GeneID 246521) | DRSC04171 | 8.45 | 15.8 | 3113 | 2297 | inactive
CG30274 (GeneID 246521) | DRSC29207 | – | 24.1 | 385 | 4772 | inactive
pb (GeneID 40826) | DRSC12409 | 0.76 | 0.91 | 6337 | 5165 | inactive
pb (GeneID 40826) | DRSC12629 | 3.65 | 7.46 | 5590 | 6127 | inactive
pb (GeneID 40826) | DRSC25059 | 1.77 | 4.47 | 6271 | 6288 | inactive
CG10459 (GeneID 36000) | DRSC05991 | 8.89 | 12.2 | 6210 | 6694 | inactive
CG10459 (GeneID 36000) | DRSC22092 | 1.85 | 1.23 | 6523 | 6338 | inactive
CG10405 (GeneID 41996) | DRSC14238 | 0.94 | 0.81 | 6502 | 6555 | inactive
CR30029 (GeneID 5740197) | DRSC06724 | 13.3 | 5.35 | 5989 | 6734 | inactive
CG7402 (GeneID 39994) | DRSC10839 | 1.96 | 0.68 | 6632 | 6436 | inactive
cass (GeneID 35053) | DRSC01850 | 9.33 | 13.5 | 6556 | 6188 | inactive
cass (GeneID 35053) | DRSC29928 | 4.67 | 3.05 | 6378 | 6197 | inactive
CG1231 (GeneID 38060) | DRSC08267 | 3.12 | 1.21 | 6094 | 6102 | inactive
CG1231 (GeneID 38060) | DRSC27231 | 14.4 | 14.6 | 4689 | 6689 | inactive
Ask1 (GeneID 42366) | DRSC16789 | 9.21 | 17.3 | 2139 | 3444 | inactive
Ask1 (GeneID 42366) | DRSC21697 | 1.32 | 1.45 | 6532 | 6702 | inactive
CG42809 + CG42810 | DRSC02532 | 3.7 | 3.98 | 6763 | 6301 | inactive
CG42809 + CG42810 | DRSC02533 | 4.62 | 7.22 | 6847 | 6755 | inactive
mRpS16 (GeneID 36570) | DRSC07152 | 8.6 | 9.78 | 6136 | 6433 | inactive
Cpr11B (GeneID 32203) | DRSC19859 | 1.12 | 1.95 | 6531 | 6464 | inactive
HP1e (GeneID 41108) | DRSC16379 | 3.15 | 7.83 | 6507 | 6820 | inactive
CG30470 (retired record) (GeneID 246632) | DRSC05553 | 5.61 | 4.06 | 4420 | 4527 | inactive
CG30470 (retired record) (GeneID 246632) | DRSC06260 | 10.8 | 14 | 6876 | 5708 | inactive
CG30470 (retired record) (GeneID 246632) | DRSC06261 | 10.4 | 8.6 | 6698 | 5968 | inactive
CG30470 (retired record) (GeneID 246632) | DRSC06777 | 5.32 | 11.6 | 6573 | 6046 | inactive
CG30470 (retired record) (GeneID 246632) | DRSC23183 | 2 | 1.76 | 6105 | 6263 | inactive
CG3635 (GeneID 35447) | DRSC03729 | 2.94 | 7.98 | 6555 | 6657 | inactive
CG6168 (GeneID 39273) | DRSC10596 | 3.34 | 2.52 | 6282 | 6043 | inactive
CG42542 (GeneID 8674000) | DRSC15549 | 5.24 | 6.98 | 6713 | 6820 | inactive
CG42542 (GeneID 8674000) | DRSC22264 | 2.08 | 14.4 | 5728 | 5998 | inactive
CG42542 (GeneID 8674000) | DRSC26522 | 2.07 | 4.66 | 6044 | 5861 | inactive
CG42542 (GeneID 8674000) | DRSC26676 | 5.86 | 4.39 | 6574 | 6316 | inactive
CG13384 (GeneID 34160) | DRSC02258 | 4.74 | 3.58 | 6223 | 5925 | inactive
RabX4 (GeneID 42960) | DRSC22189 | 1.34 | 4.37 | 6560 | 6769 | inactive
RabX4 (GeneID 42960) | DRSC26360 | 5.83 | 8.74 | 5831 | 6445 | inactive
wry (GeneID 33361) | DRSC00352 | 13.1 | 22.4 | 6668 | 6850 | inactive
wry (GeneID 33361) | DRSC00456 | 13.8 | 4.26 | 6479 | 6670 | inactive
wry (GeneID 33361) | DRSC22414 | 3.33 | 1.22 | 6516 | 6826 | inactive
CG32830 (retired record) (GeneID 318236) | DRSC01162 | 2.45 | – | 1185 | – | inactive
CG32830 (retired record) (GeneID 318236) | DRSC23151 | 2.42 | 13.9 | 6912 | 6029 | inactive
CG7720 (GeneID 42257) | DRSC16306 | 0.16 | 1.8 | 7036 | 6224 | active
CG7720 (GeneID 42257) | DRSC16307 | 0.85 | 3.02 | 6606 | 6352 | inactive
BNIP3 (GeneID 40278) | DRSC11761 | 7.13 | 1.44 | 6256 | 6322 | inactive

In a second layout: 4 of the entries above
gene	amplicon	infection score, replicate 1	infection score, replicate 2	cell count, replicate 1	cell count, replicate 2	outcome
CG30470 (retired record) (GeneID 246632)	DRSC06777	5.32	11.6	6573	6046	inactive
CG30470 (retired record) (GeneID 246632)	DRSC23183	2	1.76	6105	6263	inactive
CG3635 (GeneID 35447)	DRSC03729	2.94	7.98	6555	6657	inactive
CG6168 (GeneID 39273)	DRSC10596	3.34	2.52	6282	6043	inactive
